System: SARS-CoV-2
Experiment: Transmission electron microscopy assay of viral particles
Conditions: SARS-CoV-2 premixed with peptide 1 h room temperature, negative staining; 200 μg ml-1 or 100 μg ml^−1

Structure (SMILES): CC[C@H](C)[C@H](NC(=O)[C@H](C)NC(=O)CNC(=O)[C@@H](N)CC(N)=O)C(=O)N[C@@H](CS)C(=O)N[C@@H](Cc1c[nH]c2ccccc12)C(=O)NCC(=O)N1CCC[C@H]1C(=O)N[C@@H](CS)C(=O)N1CCC[C@H]1C(=O)N[C@H](C(=O)N[C@@H](C)C(=O)N[C@@H](Cc1ccccc1)C(=O)N[C@@H](CCCNC(=N)N)C(=O)N[C@@H](CCC(N)=O)C(=O)N[C@H](C(=O)NCC(=O)N[C@@H](CC(N)=O)C(=O)N[C@@H](CS)C(=O)NCC(=O)N[C@@H](CCCNC(=N)N)C(=O)N[C@@H](Cc1ccccc1)C(=O)N[C@@H](CCCNC(=N)N)C(=O)N[C@H](C(=O)N[C@@H](CCCNC(=N)N)C(=O)N[C@@H](CS)C(=O)N[C@@H](CS)C(=O)N[C@@H](CCCNC(=N)N)C(=O)N[C@H](C(=O)N[C@@H](CCCNC(=N)N)C(=O)O)[C@@H](C)CC)C(C)C)[C@@H](C)CC)[C@@H](C)O [P9R]
- disruption of viral particles under TEM: did not disrupt viral particles
